A mixed list of measured activities; the numbers were collected in NIAID ChemDB.

Shared fields: tests in culture; species: Aspergillus fumigatus

An empty or dashed field is not shown. Conditions beyond the fields shown may differ between rows. A number after MIC or MFC names an inhibition level or a share of isolates. Two numbers with a dash give a range or band. Zones are inhibition diameters on agar. Percent inhibition refers to the dose given; in toxicity tests it is the harm to the cells.

SMILES	strain	changes	read by	read-out	tested at	value
Clc1ccc(C(Cn2ccnc2)OCc2csc3c(Cl)cccc23)c(Cl)c1	2 strains			Mean MIC		1.41 µg/mL
Cc1ccc(-n2cc(-c3ccc([N+](=O)[O-])cc3)c(C(=O)/C=C/N(C)C)n2)cc1			agar diffusion / agar	zone	5 mg/mL	8 mm
C[C@H]1[C@H](O)[C@@H](C)/C=C/C=C/C=C/C=C/C=C/C=C/C=C/[C@H](O[C@@H]2O[C@H](C)[C@@H](O)[C@H](N)[C@@H]2O)C[C@@H]2O[C@](O)(C[C@@H](O)C[C@@H](O)CC[C@H](O)[C@@H](O)C[C@@H](O)CC(=O)O[C@H]1C)C[C@H](O)[C@H]2C(=O)O	25 isolates			MIC90		1 µg/mL
C[C@@H](N1CCN(c2ccc(OCC(F)(F)C(F)F)cc2)C1=O)C(O)(Cn1cncn1)c1ccc(F)cc1F	437			MIC		0.5 µg/mL
Brc1ccc(-c2n[nH]c(COc3ncnc4ccccc34)n2)cc1	MTCC 343			MIC100		25 µg/mL
C[C@@H](n1ccn(-c2ccc(F)cc2)c1=O)C(O)(Cn1cncn1)c1ccc(F)cc1F	IFO6344			MIC		16 µg/mL
C[C@H]1[C@H](O)[C@@H](C)/C=C/C=C/C=C/C=C/C=C/C=C/C=C/[C@H](O[C@@H]2O[C@H](C)[C@@H](O)[C@H](N)[C@@H]2O)C[C@@H]2O[C@](O)(C[C@@H](O)C[C@@H](O)CC[C@H](O)[C@@H](O)C[C@@H](O)CC(=O)O[C@H]1C)C[C@H](O)[C@H]2C(=O)O	19 isolates			MFC50		2 µg/mL
C[C@@H](N1CCN(c2ccc(OC(F)(F)C(F)F)cc2)C1=O)C(O)(Cn1cncn1)c1ccc(F)cc1F	TIMM1728			MIC		0.25 µg/mL
CCCCCOc1ccc(-c2ccc(-c3ccc(C(=O)N[C@H]4C[C@@H](O)[C@@H](O)NC(=O)[C@@H]5[C@@H](O)[C@@H](C)CN5C(=O)[C@H]([C@H](C)O)NC(=O)[C@H]([C@H](O)[C@@H](O)c5ccc(O)cc5)NC(=O)[C@@H]5C[C@@H](O)CN5C(=O)[C@H]([C@H](C)O)NC4=O)cc3)cc2)cc1	Isolate AF65			MEC		0.0018 µg/mL
CCC(C)CC(C)CCCCCCCCC(=O)N[C@H]1C[C@@H](O)[C@H](NCCN)NC(=O)[C@@H]2[C@@H](O)CCN2C(=O)[C@H]([C@H](O)CCN)NC(=O)[C@H]([C@H](O)[C@@H](O)c2ccc(O)cc2)NC(=O)[C@@H]2C[C@@H](O)CN2C(=O)[C@H]([C@@H](C)O)NC1=O	26 isolates			Geometric mean MEC		0.3 µg/mL
COc1cc(-c2n[nH]c(COc3nc(C)nc4ccccc34)n2)cc(OC)c1OC	MTCC 343			MIC100		25 µg/mL
CCC(C)n1ncn(-c2ccc(N3CCN(c4ccc(OC[C@H]5CO[C@](Cn6cncn6)(c6ccc(Cl)cc6Cl)O5)cc4)CC3)cc2)c1=O	AF293		broth dilution	inhibition	16 µg/mL	99.94%
C[C@H]1[C@H](O)[C@@H](C)/C=C/C=C/C=C/C=C/C=C/C=C/C=C/[C@H](O[C@@H]2O[C@H](C)[C@@H](O)[C@H](N)[C@@H]2O)C[C@@H]2O[C@](O)(C[C@@H](O)C[C@@H](O)CC[C@H](O)[C@@H](O)C[C@@H](O)CC(=O)O[C@H]1C)C[C@H](O)[C@H]2C(=O)O	Clinical isolate		XTT	MFC		1–2 µg/mL
CCCCCOc1ccc(-c2cc(-c3ccc(C(=O)N[C@H]4C[C@@H](O)[C@@H](O)NC(=O)[C@@H]5[C@@H](O)[C@@H](C)CN5C(=O)[C@H]([C@H](O)CC(N)=O)NC(=O)[C@H]([C@H](O)[C@@H](O)c5ccc(O)c(OS(=O)(=O)O)c5)NC(=O)[C@@H]5C[C@@H](O)CN5C(=O)[C@H]([C@@H](C)O)NC4=O)cc3)no2)cc1	25 isolates			MIC90		0.06 µg/mL
CCN1CCC(O)(/C=C/c2ccc(Cl)cc2)C(C(=O)/C=C/c2ccc(Cl)cc2)C1	28 strains (itraconazole-resistant)			MIC90		5.84 µg/mL
C[C@@H](N1CCN(c2ccc(C(F)(F)F)cc2)C1=O)C(O)(Cn1cncn1)c1ccc(F)cc1F	437			MIC		1 µg/mL
Oc1ccc(-c2n[nH]c(COc3nc(C(F)(F)F)nc4ccccc34)n2)cc1	MTCC 343			MIC100		50 µg/mL
COC(=O)[C@H]1[C@@H]2C[C@@H](O[C@@H]3O[C@H](C)[C@@H](O)[C@H](N)[C@@H]3O)/C=C/C=C/C=C/C=C/C=C/C=C/C=C/[C@H](C)[C@@H](O)[C@H](C)[C@H](C)OC(=O)C[C@H](O)C[C@H](O)[C@@H](O)CC[C@H](O)C[C@H](O)C[C@](O)(C[C@@H]1O)O2	35 isolates			Geometric mean MIC		1 µg/mL
Cc1ccc(-n2cc(-c3ccc([N+](=O)[O-])cc3)c(-c3ccon3)n2)cc1			agar diffusion / agar	zone	5 mg/mL	22 mm
Oc1ccc(-c2n[nH]c(COc3ncnc4ccccc34)n2)cc1	MTCC 282			MIC100		12.5 µg/mL
C[C@@H](c1ncncc1F)[C@](O)(Cn1cncn1)c1ccc(F)cc1F	3 isolates			Geometric mean MIC		0.63 µg/mL
CC(C(O)(Cn1cncn1)c1ccc(F)cc1F)S(C)(=O)=O	H11-20			MLC		>80 µg/mL
CC(=O)OCC1C=C(c2ccc(Cl)c(Cl)c2)C(=O)O1	12 isolates			MIC90		2 µg/mL
C[C@@H](N1CCN(c2ccc(OCC(F)(F)C(F)F)cc2)C1=O)C(O)(Cn1cncn1)c1ccccc1F	IFO6344			MIC		0.5 µg/mL
O=c1cc(CO)occ1O		sakA deletion	agar	MIC99		>12800 µM
C[C@H]1[C@H](O)[C@@H](C)/C=C/C=C/C=C/C=C/C=C/C=C/C=C/[C@H](O[C@@H]2O[C@H](C)[C@@H](O)[C@H](N)[C@@H]2O)C[C@@H]2O[C@](O)(C[C@@H](O)C[C@@H](O)CC[C@H](O)[C@@H](O)C[C@@H](O)CC(=O)O[C@H]1C)C[C@H](O)[C@H]2C(=O)O	12 isolates			MIC90		0.25 µg/mL
CCOC(=O)c1ccc(-c2nn(-c3ccccc3)cc2-c2ccc([N+](=O)[O-])cc2)nc1C			agar diffusion / agar	zone	2.5 mg/mL	4 mm
C[C@H]1[C@H](O)[C@@H](C)/C=C/C=C/C=C/C=C/C=C/C=C/C=C/[C@H](O[C@@H]2O[C@H](C)[C@@H](O)[C@H](N)[C@@H]2O)C[C@@H]2O[C@](O)(C[C@@H](O)C[C@@H](O)CC[C@H](O)[C@@H](O)C[C@@H](O)CC(=O)O[C@H]1C)C[C@H](O)[C@H]2C(=O)O	NCIM 902		broth dilution / absorbance	MIC99		0.39 µM
C[C@@H](n1ccn(-c2ccc(OCC(F)(F)C(F)F)cc2)c1=O)C(O)(Cn1cncn1)c1ccccc1F	TIMM1728			MIC		2 µg/mL
CCOC(=O)C1=NN(c2ccccc2)C2=Nc3nccc(-c4nn(-c5ccccc5)cc4-c4ccc([N+](=O)[O-])cc4)c3C(=O)C12			agar diffusion / agar	zone	2.5 mg/mL	14 mm
C[C@H]1[C@H](O)[C@@H](C)/C=C/C=C/C=C/C=C/C=C/C=C/C=C/[C@H](O[C@@H]2O[C@H](C)[C@@H](O)[C@H](N)[C@@H]2O)C[C@@H]2O[C@](O)(C[C@@H](O)C[C@@H](O)CC[C@H](O)[C@@H](O)C[C@@H](O)CC(=O)O[C@H]1C)C[C@H](O)[C@H]2C(=O)O	35 isolates			MIC90		2 µg/mL
COC(=O)[C@H]1[C@@H]2C[C@@H](O[C@@H]3O[C@H](C)[C@@H](O)[C@H](N)[C@@H]3O)/C=C/C=C/C=C/C=C/C=C/C=C/C=C/[C@H](C)[C@@H](O)[C@H](C)[C@H](C)OC(=O)C[C@H](O)C[C@H](O)[C@@H](O)CC[C@H](O)C[C@H](O)C[C@](O)(C[C@@H]1O)O2	H11-20			MLC		0.29 µg/mL
CC(C)CC1NC(=O)CC(CCCCCCCCC(C)O)OC(=O)C(CC(C)C)NC(=O)C(CC(C)C)NC(=O)C(CC(C)C)NC(=O)C(C(C)C)NC(=O)C(CC(=O)O)NC(=O)C(CC(C)C)NC1=O	Clinical isolate		visual reading	MFC		8 µg/mL
Cc1ccc(C(C)C)cc1	F07			MLC		>20 µg/mL
Cc1ccc(-n2cc(-c3ccc([N+](=O)[O-])cc3)c(-c3ccnc4nncn34)n2)cc1			agar diffusion / agar	zone	1.25 mg/mL	6 mm

4 of the rows above, restated:

{"SMILES": "CCC(C)n1ncn(-c2ccc(N3CCN(c4ccc(OC[C@H]5CO[C@](Cn6cncn6)(c6ccc(Cl)cc6Cl)O5)cc4)CC3)cc2)c1=O", "strain": "AF293", "read by": "broth dilution", "read-out": "inhibition", "tested at": "16 µg/mL", "value": "99.94%"}
{"SMILES": "CCOC(=O)C1=NN(c2ccccc2)C2=Nc3nccc(-c4nn(-c5ccccc5)cc4-c4ccc([N+](=O)[O-])cc4)c3C(=O)C12", "read by": "agar diffusion / agar", "read-out": "zone", "tested at": "2.5 mg/mL", "value": "14 mm"}
{"SMILES": "CC(C(O)(Cn1cncn1)c1ccc(F)cc1F)S(C)(=O)=O", "strain": "H11-20", "read-out": "MLC", "value": ">80 µg/mL"}
{"SMILES": "Cc1ccc(-n2cc(-c3ccc([N+](=O)[O-])cc3)c(-c3ccnc4nncn34)n2)cc1", "read by": "agar diffusion / agar", "read-out": "zone", "tested at": "1.25 mg/mL", "value": "6 mm"}